Laboratory results reported in patent US12576103B2 (priority 2020, dated 2026).

Tested on: SARS-COV-2
Format: cell-based
Details: heparin concentrations at or above 1 mg/mL; FIG. 8 dose response up to 2 mg/mL

In the case of heparin, the cytopathic effect is reported as 100%.
